# Record: PubChem BioAssay AID624099 (ICCB-Longwood, 2012)
# Assay: 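Knock-downs relieving repression by E2 of an HPV18 LCR luciferase reporter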 (primary screen)
# Cell system: human C33A cervical carcinoma cells (HPV-negative) stably expressing BPV1 E2 and an HPV18 LCR luciferase reporter
# Reagent: siRNA pool against human genes, 40 nM
# Timing: 72 h
# Read-out: 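HPV18 LCR reporter light per well, converted to plate-wise z-scores that exclude control wells, and averaged over triplicate plates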
# Direction: mean z-score and z-score: higher = stronger reporter signal, weaker E2 silencing
# Hit rule: 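Mean z ≥ 2 together with z ≥ 2 in two or more of the three replicates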
# This is one part, drawn at random, of about 21,000 reagents. Over the whole deposit, 497 (2.4%) are marked active. 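Higher z means weaker E2 silencing; only reporter increases were scored, and knock-downs that hurt cell survival may mask genuine repressor factors.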 Unmarked entries are inactive.
gene,mean z-score,"z-score, replicate A","z-score, replicate B","z-score, replicate C"
JAM3,1.27,1.45,1.28,1.07
CPNE6,-0.41,-0.27,-0.42,-0.56
CYP2D6,-0.63,-0.41,-0.8,-0.67
GRIN1,-0.45,-0.39,-0.4,-0.55
LINC-PINT,1.56,1.69,1.15,1.85
PLEKHF1,-0.42,-0.43,-0.32,-0.52
LAYN,0.16,0.39,0.62,-0.53
ATG4D,-1.69,-1.41,-2.02,-1.64
MAP3K3,0.3,0.08,0.45,0.36
GOLGA1,0.33,0.27,0.39,0.32
UBE2NL,-1.01,-0.94,-0.95,-1.14
CTU2,-1.99,-1.94,-2.07,-1.98
CAMKK2,0.12,-0.14,0.67,-0.16
MYBPC2,0.76,0.78,0.74,0.75
WSCD2,0.49,0.48,0.2,0.81
WDR75,-0.09,0.09,-0.19,-0.18
KIAA0087,2.72 (active),2.74,2.66,2.76
CEP95,-0.17,-0.4,-0.32,0.22
NPIPB11,-0.58,-0.44,-0.83,-0.48
KRT33A,0.72,0.78,0.73,0.64
MCCC2,-0.2,-0.29,0.05,-0.37
GRM1,-0.4,-0.3,-0.28,-0.62
HOXC8,-0.54,-0.7,-0.24,-0.69

Entries above marked active:
gene,mean z-score,"z-score, replicate A","z-score, replicate B","z-score, replicate C"
KIAA0087,2.72 (active),2.74,2.66,2.76
